Assay results as given in patent US20100104550A1.

Biological target: BiP (Immunoglobulin Binding Protein) of Vero (African green monkey kidney) cells (African green monkey (Vero cells)) (UniProt P11021)
Test: cell-based or functional assay

Subtilase cytotoxin (SubAB) holotoxin (from UniProt Q6EZC3 24-141) (enzyme)
cytotoxicity endpoint titre on untransfected Vero cells (CD50/µg toxin): 200000
